Assay results: the supplement of paper PMC9931576
Human monoclonal antibodies against the spike receptor-binding domain (heavy:light variable regions). IC50 against pseudoviruses bearing the spike of naturally observed variants; lower = stronger; >10 µg/ml means not reached at the top dose. No active / inactive call. The stated detection limit is 0.0005 µg/ml; values near or below 0.001 µg/ml lie at the floor of the assay.

B1: BD55-6387 (protein)
chain 1: EVHLVESGGTLVQPGGSLRLSCAASGFIFTNYEMNWVRQAPGKGLEWVSYISRTGATMHYADSVKGRFTISRDNAKSSLYLQMNALRAEDTAVYYCASGLSNTWYDLVFWGQGTLVTVSS
chain 2: DIQMTQSPSSLSASVGDRVTITCRASQGIGNDLGWYQQKPGKAPQRLIFAASSLQSGAPSRFSGSGSGTEFTLTINSLQPEDSATYYCLQHNSYPPTFGQGTNLEIK
B2: BD55-6412 (protein)
chain 1: EVQLVESGGVLVQPGRSLRLSCTTSGFIFGDYGMTWVRQAPGKGLEWVGFIRTKAYGGTTEYAASVKGRFTISRDDSESIAYLQMDSLKTEDTAVYYCAREMTTLKYYYYAFDVWGRGTTVTVSS
chain 2: DIQLTQSPSSLSAAVGDRVTITCRASQSISYNLNWYHQKPGQAPKLLIYAASSLQSGVPSRFSGSGSGTDFTLTISSLQPEDFATFYCQHSYTTLTTFGPGTKVDIK
B3: BD55-6419 (protein)
chain 1: QVQLQESGPGLVKPSETLSLTCTVSGASITNYFWSWIRQPPGKGLEYIGYIYYSGRTNYNPSLRSRLTISLDTSKNQFSLKLSSVTAADTAVYFCARGFIAASDDAFDIWGQGTMVTVSS
chain 2: QSALTQPASVSGSPGQSITISCTGASSDVGGYNYVSWYQQHPGKAPKLMIYDVNNRPSGVSDRFSGSKSGNTASLTISGLQAEDEADYYCSSYTGSSVVFGGGTKLTVL
B4: BD55-6425 (protein)
chain 1: EVQLVQSRAGLKKPGESLKISCKGSGYNFNDYWIAWVRQMPGKGPEWMGLVYPGDSDTRYSPSFQGQVTFSADKSINTAYLQWNSLRASDTATYYCARHGGPLRHIDWQNHGMDVWGQGTAVTVSS
chain 2: DIHMTQSPSSLSASVGDRVTITCRASQTIGTYLHWYQQKPGNAPKLLIYAASSLQSGVPSRFRGAGSGTDFTLTISGLQPEDFATYFCQQSYSTPTWTFGQGTKVELK
B5: BD55-6426 (protein)
chain 1: QVEMVESGGGLVKPGGSLRLSCAASGFIFSVYDMNWVRQSPGKGLEWISYISSSGDTTFYADSVKGRFTISRDNAKNSLSLQMNSLRAEDTAVYYCAREKKGYNYGYPTLDHWGLGILVTVSS
chain 2: DIEMTQSPSSLSASVGDRVTISCRASQSISFYVNWYQQKPGKAPKLLIYTASTLQTGVPSRFSGSGSGTDFTLTISSLQPDDFATYYCQQTYTTPPPPLTFGGGTRVEFK
B6: BD55-6428 (protein)
chain 1: QVQLVQSGAEAKKPGASVKLSCRASGYNLTSFHINWVRQAPGKGLEWVGIINPSDGTARYAQEFQGRVTMSRDTSTSTVYLDVRSLRSEDSAFYYCAREVYYGVGFYVFDYWGQGTLVTVS
chain 2: DIQMTQSPSSLSASVGDRVTITCRASQSISTYVNWYEQKPGKAPNLLIYEASRLQSGVPSRFSGSGSGTEFSLTISSLQPEDFVTFYCQQSYSTPYTFGQGTRLEI

Target: SARS-CoV-2 Omicron BA.1 spike pseudovirus
Test: pseudovirus neutralization IC50; higher = weaker neutralization
Procedure: (§1)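 Single-round VSV luciferase pseudovirus mixed with antibody dilutions for 1 h and put on Huh-7 cells for about a day; IC50 from the dose curve.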

| Binder | pseudovirus neutralization IC50 [µg/mL] |
| --- | --- |
| B1 | > 10 |
| B2 | > 10 |
| B3 | > 10 |
| B4 | > 10 |
| B5 | > 10 |
| B6 | > 10 |

Target: SARS-CoV-2 Omicron BA.2 spike pseudovirus
Test: as above
Procedure: as §1

| Binder | pseudovirus neutralization IC50 [µg/mL] |
| --- | --- |
| B1 | > 10 |
| B2 | > 10 |
| B3 | > 10 |
| B4 | > 10 |
| B5 | > 10 |
| B6 | > 10 |

Target: SARS-CoV-2 Omicron BA.2.75 spike pseudovirus
Test: as above
Procedure: as §1

| Binder | pseudovirus neutralization IC50 [µg/mL] |
| --- | --- |
| B1 | > 10 |
| B2 | > 10 |
| B3 | > 10 |
| B4 | > 10 |
| B5 | > 10 |
| B6 | > 10 |

Target: SARS-CoV-2 Omicron BA.5 spike pseudovirus
Test: as above
Procedure: as §1

| Binder | pseudovirus neutralization IC50 [µg/mL] |
| --- | --- |
| B1 | > 10 |
| B2 | > 10 |
| B3 | > 10 |
| B4 | > 10 |
| B5 | > 10 |
| B6 | > 10 |

Target: SARS-CoV-2 Omicron BQ.1.1 spike pseudovirus
Test: as above
Procedure: as §1

| Binder | pseudovirus neutralization IC50 [µg/mL] |
| --- | --- |
| B1 | > 10 |
| B2 | > 10 |
| B3 | > 10 |
| B4 | > 10 |
| B5 | > 10 |
| B6 | > 10 |

Target: SARS-CoV-2 Omicron XBB spike pseudovirus
Test: as above
Procedure: as §1

| Binder | pseudovirus neutralization IC50 [µg/mL] |
| --- | --- |
| B1 | > 10 |
| B2 | > 10 |
| B3 | > 10 |
| B4 | > 10 |
| B5 | > 10 |
| B6 | > 10 |

Target: SARS-CoV-2 early D614G spike pseudovirus
Test: as above
Procedure: as §1

| Binder | pseudovirus neutralization IC50 [µg/mL] |
| --- | --- |
| B1 | 0.0742 |
| B2 | > 10 |
| B3 | > 10 |
| B4 | > 10 |
| B5 | > 10 |
| B6 | > 10 |
